Results of unrelated studies side by side (data: NIAID ChemDB).

Common to all: tests in culture; organism: Candida albicans; read by: broth dilution; read-out: MIC

Rows are shuffled and stem from different studies. a–b is a range or a potency band.

{"compound": "CC1=C(Cl)C(O)=CC(=O)C12Oc1cc(O)c(Cl)c(C)c1C2=O", "strain or isolate": "MTCC 227", "value": "500 µg/mL"}
{"compound": "COc1ccc2nc(Sc3ccccc3)c(C3C(C#N)=C(N)Oc4cc(C)oc(=O)c43)cc2c1", "strain or isolate": "MTCC 227", "value": "1000 µg/mL"}
{"compound": "ClCCN1CCN(C(c2ccccc2)c2ccc(Cl)cc2)CC1", "strain or isolate": "ATCC 76615", "value": "200 µg/mL"}
{"compound": "C[C@@H]1[C@H](O)[C@@H](C)/C=C/C=C/C=C/C=C/C=C/C=C/C=C/[C@H](O[C@@H]2O[C@H](C)[C@@H](O)[C@H](N)[C@@H]2O)C[C@@H]2O[C@](O)(C[C@@H](O)[C@H](O)CC[C@@H](O)C[C@@H](O)C[C@@H](O)CC(=O)O[C@H]1C)C[C@H](O)[C@H]2C(=O)O", "strain or isolate": "ATCC 14053", "value": "2 µg/mL"}
{"compound": "O=C(O)c1cc(O)c(O)c(O)c1", "strain or isolate": "ATCC 10231", "value": "200 µg/mL"}
{"compound": "Cc1ccc2nc(N3CCOCC3)c(CC(C#N)c3nc4ccccc4[nH]3)cc2c1", "strain or isolate": "MTCC 227", "value": "100 µg/mL"}
{"compound": "COc1cccc(N=C(C)c2cc(C(C)=Nc3cccc(OC)c3)c(O)cc2O)c1", "strain or isolate": "MTCC 227", "value": "250 µg/mL"}
{"compound": "Cc1ccc2nc(N3CCOCC3)c(/C=C(/C#N)c3nc4ccc(C)cc4[nH]3)cc2c1", "strain or isolate": "MTCC 227", "value": "250 µg/mL"}
{"compound": "C[C@@H]1[C@H](O)[C@@H](C)/C=C/C=C/C=C/C=C/C=C/C=C/C=C/[C@H](O[C@@H]2O[C@H](C)[C@@H](O)[C@H](N)[C@@H]2O)C[C@@H]2O[C@](O)(C[C@@H](O)C[C@@H](O)[C@H](O)CC[C@@H](O)C[C@@H](O)CC(=O)O[C@H]1C)C[C@H](O)[C@H]2C(=O)O", "strain or isolate": "ATCC 10231", "value": "0.15 µg/mL"}
{"compound": "Cc1ccc(N2NOC(=O)C2S(=O)(=O)Nc2ccc(-n3c(-c4ccc(Cl)cc4)nc4ccccc4c3=O)cc2)cc1", "strain or isolate": "MTCC 227", "value": "250 µg/mL"}
{"compound": "C=CCc1ccc(O)c(-c2cc(CC=C)ccc2O)c1", "value": ">160 µg/mL"}
{"compound": "OC(Cn1cncn1)(Cn1cncn1)c1ccc(F)cc1F", "strain or isolate": "YL 313", "value": "256 µg/mL"}
{"compound": "CCC(C)n1ncn(-c2ccc(N3CCN(c4ccc(OC[C@H]5CO[C@](Cn6cncn6)(c6ccc(Cl)cc6Cl)O5)cc4)CC3)cc2)c1=O", "strain or isolate": "Clinical isolates", "value": "0.03 µg/mL"}
{"compound": "O=C(CN1CCN(C(c2ccccc2)c2ccc(Cl)cc2)CC1)Cn1cncn1", "strain or isolate": "ATCC 76615", "value": "100 µg/mL"}
{"compound": "N#CC1=C(N)N(c2nc(-c3ccc(O)cc3)cs2)C2=C(C(=O)CCC2)C1c1cc2ccccc2nc1F", "strain or isolate": "MTCC 227", "value": "500 µg/mL"}
{"compound": "COc1ccc(CN=C=S)cc1", "value": "1 µg/mL"}
{"compound": "OC(CN1CCN(C(c2ccccc2)c2ccc(Cl)cc2)CC1)Cn1cncn1", "strain or isolate": "ATCC 76615", "value": "100 µg/mL"}
{"compound": "O=C(/C=C/c1ccc(Br)cc1)c1cccc(N(CCO)CCO)c1", "strain or isolate": "ATCC 10231", "value": "128 µg/mL"}
{"compound": "C[C@@H]1[C@H](O)[C@@H](C)/C=C/C=C/CC/C=C/C=C/C=C/C=C/C(O[C@H]2O[C@H](C)[C@@H](O)[C@H](N)[C@@H]2O)CC2O[C@](O)(CC(O)C(O)CCC(O)CC(O)CC(O)CC(=O)O[C@H]1C)CC(O)C2C(=O)O", "strain or isolate": "MTCC 227", "value": "1000 µg/mL"}
{"compound": "CCN(CC)N1C(=O)C(C(Sc2ccccc2)c2ccccc2)SC1=S", "strain or isolate": "ATCC 2091", "value": "64 µg/mL"}
{"compound": "COc1ccc(CSC#N)cc1", "value": "600 µg/mL"}
{"compound": "Cc1ccc2nc(Sc3ccccc3)c(C3C(C#N)=C(N)Oc4c3c(=O)oc3ccc(C)cc43)cc2c1", "strain or isolate": "MTCC 227", "value": "500 µg/mL"}
{"compound": "COc1ccccc1CN=C=S", "value": "150 µg/mL"}
{"compound": "CC[C@@H]([C@H](C)O)n1ncn(-c2ccc(N3CCN(c4ccc(OC[C@@H]5CO[C@@](Cn6cncn6)(c6ccc(F)cc6F)C5)cc4)CC3)cc2)c1=O", "strain or isolate": "Clinical isolates", "value": "0.03 µg/mL"}
{"compound": "CC1(C)C(O)P2(=NP3(=NP(Cl)(Cl)=N2)NCCCN3CCCCN2CCCNP23=NP(Cl)(Cl)=NP2(=N3)C(O)C(C)(C)C2O)C1O", "strain or isolate": "ATCC 102031", "value": "2–1024 µg/mL"}
{"compound": "Cc1ccc(N2NOC(=O)C2S(=O)(=O)Nc2nc(-c3ccc(Br)cc3)cs2)cc1", "strain or isolate": "MTCC 227", "value": "250 µg/mL"}
{"compound": "Cc1ccccc1.Cc1ccccc1.NP1(Nc2ccccc2)=NP2(=NP(Cl)(Cl)=N1)NCCCN2CCCCN1CCCNP12=NP(Cl)(Cl)=NP(N)(Nc1ccccc1)=N2", "strain or isolate": "ATCC 102031", "value": "2–1024 µg/mL"}
{"compound": "CCN(CC)N1C(=O)C(C(Sc2ccccc2)c2ccc(C)cc2C)SC1=S", "strain or isolate": "ATCC 2091", "value": "32 µg/mL"}
{"compound": "Cc1ccc(Sc2nc3ccccc3cc2C2C(C#N)=C(N)Oc3cc(C)oc(=O)c32)cc1", "strain or isolate": "MTCC 227", "value": "1000 µg/mL"}
{"compound": "O=c1c(O)c(-c2ccc(O)c(O)c2)oc2cc(O)cc(O)c12", "strain or isolate": "ATCC 10231", "value": "100 µg/mL"}
{"compound": "CC(=O)N1CCN(c2ccc(OC[C@H]3CO[C@](Cn4ccnc4)(c4ccc(Cl)cc4Cl)O3)cc2)CC1", "strain or isolate": "ATCC 60027", "value": "20 µg/mL"}
{"compound": "O=C(CCl)N1CCN(C(c2ccccc2)c2ccc(Cl)cc2)CC1", "strain or isolate": "ATCC 76615", "value": "25 µg/mL"}
{"compound": "Cc1cc2c(c(=O)o1)C(c1cc3ccccc3nc1Sc1ccc(Cl)cc1)C(C#N)=C(N)O2", "strain or isolate": "MTCC 227", "value": "1000 µg/mL"}
{"compound": "CCOC(=O)C1=C(N)N(c2nc(-c3ccccc3)cs2)C2=C(C(=O)CCC2)C1c1cc2cc(C)ccc2nc1F", "strain or isolate": "MTCC 227", "value": "250 µg/mL"}
{"compound": "Cc1ccc(Sc2nc3ccccc3cc2C2C(C#N)=C(N)Oc3c2c(=O)oc2ccc(C)cc32)cc1", "strain or isolate": "MTCC 227", "value": "1000 µg/mL"}
{"compound": "Cc1ccc(N2NOC(=O)C2S(=O)(=O)Nc2nc(-c3ccc(Cl)cc3Cl)cs2)cc1", "strain or isolate": "MTCC 227", "value": "1000 µg/mL"}
{"compound": "COc1ccc2cc3[n+](cc2c1OC)CCc1cc2c(cc1-3)OCO2", "value": ">160 µg/mL"}
{"compound": "CCOC(=O)C1=C(N)N(c2nc(-c3ccccc3)cs2)C2=C(C(=O)CCC2)C1c1cc2ccccc2nc1F", "strain or isolate": "MTCC 227", "value": "500 µg/mL"}
{"compound": "N#CCc1ccccc1", "value": "600 µg/mL"}
{"compound": "CCOC(=O)C1=C(N)N(c2nc(-c3ccccc3O)cs2)C2=C(C(=O)CCC2)C1c1cc2cc(OC)ccc2nc1F", "strain or isolate": "MTCC 227", "value": "100 µg/mL"}
{"compound": "c1ccc([Se][Se]c2ccccc2)cc1", "strain or isolate": "ATCC 44773", "value": "16 µg/mL"}
{"compound": "O=C(/C=C/c1ccc(Cl)cc1Cl)c1cccc(N(CCO)CCO)c1", "strain or isolate": "ATCC 10231", "value": "128 µg/mL"}
{"compound": "O=C1NC(=S)SC1C(Sc1ccccc1)c1c(Cl)cccc1Cl", "strain or isolate": "ATCC 2091", "value": "64 µg/mL"}
{"compound": "O=C(CN1CCN(C(c2ccccc2)c2ccc(Cl)cc2)CC1)Cn1ccnc1", "strain or isolate": "ATCC 76615", "value": "6.2 µg/mL"}
{"compound": "Cc1cc2c(c(=O)o1)C(c1cc3ccccc3nc1Sc1ccccc1)C(C#N)=C(N)O2", "strain or isolate": "MTCC 227", "value": "250 µg/mL"}
{"compound": "O=c1c(O)c(-c2ccc(O)c(O)c2)oc2cc(O)cc(O)c12", "strain or isolate": "ATCC 10231", "value": "125 µg/mL"}
{"compound": "OC1C(F)(F)C(F)(F)C(O)P2(Cl)=NP3(=NP1(Cl)=N2)NCCCN3CCCCN1CCCNP12=NP1(Cl)=NP(Cl)(=N2)C(O)C(F)(F)C(F)(F)C1O", "strain or isolate": "ATCC 102031", "value": "2–1024 µg/mL"}
{"compound": "CCOC(=O)C1=C(N)N(c2nc(-c3ccc(Cl)cc3)cs2)C2=C(C(=O)CCC2)C1c1cc2cc(Cl)ccc2nc1F", "strain or isolate": "MTCC 227", "value": "500 µg/mL"}
{"compound": "O=C(CN1CCN(C(c2ccccc2)c2ccc(Cl)cc2)CC1)Cn1cnc([N+](=O)[O-])c1", "strain or isolate": "ATCC 76615", "value": "25 µg/mL"}
{"compound": "Clc1ccc(COC(Cn2ccnc2)c2ccc(Cl)cc2Cl)c(Cl)c1", "strain or isolate": "Clinical isolates", "value": "0.03 µg/mL"}
{"compound": "Cc1ccc(Sc2nc3ccccc3cc2C2C(C#N)=C(N)Oc3c2c(=O)oc2ccccc32)cc1", "strain or isolate": "MTCC 227", "value": "500 µg/mL"}
{"compound": "CCN(CC)N1C(=O)C(C(Sc2ccccc2)c2ccc3ccccc3c2)SC1=S", "strain or isolate": "ATCC 2091", "value": "32 µg/mL"}
{"compound": "Cc1ccc2nc(Sc3ccccc3)c(C3C(C#N)=C(N)Oc4cc(C)oc(=O)c43)cc2c1", "strain or isolate": "MTCC 227", "value": "1000 µg/mL"}
{"compound": "Cc1ccc(N2NOC(=O)C2S(=O)(=O)Nc2nc(-c3ccc(Cl)cc3)cs2)cc1", "strain or isolate": "MTCC 227", "value": "125 µg/mL"}
{"compound": "Cc1ccc2nc(N3CCOCC3)c(CC(C#N)c3nc4ccc(C)cc4[nH]3)cc2c1", "strain or isolate": "MTCC 227", "value": "1000 µg/mL"}
{"compound": "OC1CCC(O)P12=NP1(=NP(Cl)(Cl)=N2)NCCCN1CCCCN1CCCNP12=NP(Cl)(Cl)=NP1(=N2)C(O)CCC1O", "strain or isolate": "ATCC 102031", "value": "2–1024 µg/mL"}
{"compound": "N#CC(O)c1ccccc1", "strain or isolate": "ATCC 10231", "value": "750 µg/mL"}
{"compound": "CCCCCCCCCCCCCCCCCCCO", "strain or isolate": "ATCC 10231", "value": "200 µg/mL"}
{"compound": "COc1ccc2nc(N3CCOCC3)c(/C=C(/C#N)c3nc4ccccc4[nH]3)cc2c1", "strain or isolate": "MTCC 227", "value": "1000 µg/mL"}
{"compound": "C[C@@H]1[C@H](O)[C@@H](C)/C=C/C=C/CC/C=C/C=C/C=C/C=C/C(O[C@H]2O[C@H](C)[C@@H](O)[C@H](N)[C@@H]2O)CC2O[C@](O)(CC(O)C(O)CCC(O)CC(O)CC(O)CC(=O)O[C@H]1C)CC(O)C2C(=O)O", "strain or isolate": "MTCC 227", "value": "100 µg/mL"}
{"compound": "COc1ccc2nc(Sc3ccc(C)cc3)c(C3C(C#N)=C(N)Oc4c3c(=O)oc3ccccc43)cc2c1", "strain or isolate": "MTCC 227", "value": "1000 µg/mL"}
{"compound": "CCN(CC)N1C(=O)C(C(Sc2ccccc2)c2c(Cl)cc(C)cc2Cl)SC1=S", "strain or isolate": "ATCC 2091", "value": "32 µg/mL"}
{"compound": "CCC(C)CC(C)CCCCCCCCC(=O)N[C@H]1C[C@@H](O)[C@H](NCCN)NC(=O)[C@@H]2[C@@H](O)CCN2C(=O)[C@H]([C@H](O)CCN)NC(=O)[C@H]([C@H](O)[C@@H](O)c2ccc(O)cc2)NC(=O)[C@@H]2C[C@@H](O)CN2C(=O)[C@H]([C@@H](C)O)NC1=O", "strain or isolate": "1399", "value": "0.5 µg/mL"}

Repeating the final 4 entries:

C[C@@H]1[C@H](O)[C@@H](C)/C=C/C=C/CC/C=C/C=C/C=C/C=C/C(O[C@H]2O[C@H](C)[C@@H](O)[C@H](N)[C@@H]2O)CC2O[C@](O)(CC(O)C(O)CCC(O)CC(O)CC(O)CC(=O)O[C@H]1C)CC(O)C2C(=O)O ; strain or isolate: MTCC 227 ; value: 100 µg/mL
COc1ccc2nc(Sc3ccc(C)cc3)c(C3C(C#N)=C(N)Oc4c3c(=O)oc3ccccc43)cc2c1 ; strain or isolate: MTCC 227 ; value: 1000 µg/mL
CCN(CC)N1C(=O)C(C(Sc2ccccc2)c2c(Cl)cc(C)cc2Cl)SC1=S ; strain or isolate: ATCC 2091 ; value: 32 µg/mL
CCC(C)CC(C)CCCCCCCCC(=O)N[C@H]1C[C@@H](O)[C@H](NCCN)NC(=O)[C@@H]2[C@@H](O)CCN2C(=O)[C@H]([C@H](O)CCN)NC(=O)[C@H]([C@H](O)[C@@H](O)c2ccc(O)cc2)NC(=O)[C@@H]2C[C@@H](O)CN2C(=O)[C@H]([C@@H](C)O)NC1=O ; strain or isolate: 1399 ; value: 0.5 µg/mL